Experimental data as given in ChEMBL document CHEMBL1126355, “The basis for slowly reversible inhibition of dehydroquinate synthase: a case of mistaken identity?” (Bioorg Med Chem Lett, 1992).

Legend:
[1] = molecular target: T1, 3-dehydroquinate synthase (Escherichia coli K-12) (UniProt P07639); test: Rate constant against 3-dehydroquinate synthase
T1 sequence (whole entry): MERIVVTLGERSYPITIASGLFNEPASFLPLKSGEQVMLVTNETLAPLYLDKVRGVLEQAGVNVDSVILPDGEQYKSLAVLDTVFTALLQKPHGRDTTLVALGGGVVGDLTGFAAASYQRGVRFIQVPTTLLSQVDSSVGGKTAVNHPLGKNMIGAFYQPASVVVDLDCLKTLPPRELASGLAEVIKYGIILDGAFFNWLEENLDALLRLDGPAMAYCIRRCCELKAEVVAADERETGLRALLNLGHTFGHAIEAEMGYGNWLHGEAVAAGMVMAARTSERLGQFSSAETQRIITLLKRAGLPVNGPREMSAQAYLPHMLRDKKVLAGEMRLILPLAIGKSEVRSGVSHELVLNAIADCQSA

[2] = molecular target: T1, 3-dehydroquinate synthase (Escherichia coli K-12); test: […] rate constant against 3-dehydroquinate synthase

Structure (SMILES): O=C(O)C1(O)CCC(O)C(CP(=O)(O)O)C1 (configuration not stated)
- k on [1]: 1500 M⁻¹ s⁻¹
- k off [2]: 0.00032 s⁻¹
